Data as given in PubChem BioAssay AID624099 (ICCB-Longwood, 2012).
Shown is one part, drawn at random, of about 21,000 reagents tested. In the full data, 497 (2.4%) were called active. 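Higher z means weaker E2 silencing; only reporter increases were scored, and knock-downs that hurt cell survival may mask genuine repressor factors.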 Entries without a mark were called inactive.

Purpose: 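Human genes that papillomavirus E2 requires to repress the HPV18 LCR promoter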 (primary screen)
Cells: human C33A cervical carcinoma cells (HPV-negative) stably expressing BPV1 E2 and an HPV18 LCR luciferase reporter
Reagent: siRNA pool against human genes, 40 nM
Time to read-out: 72 h
Measurement: 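Per-well luciferase luminescence, z-scored on each plate against the plate mean and SD with control wells left out, then averaged across three replicate plates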
Direction: mean z-score and z-score: higher = stronger reporter signal, weaker E2 silencing
Active means: 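Mean z ≥ 2 together with z ≥ 2 in two or more of the three replicates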

target | mean z-score | z-score, replicate A | z-score, replicate B | z-score, replicate C
NPY4R (neuropeptide Y receptor Y4) | -0.28 | -0.11 | -0.35 | -0.38
RGS1 (regulator of G protein signaling 1) | -0.81 | -0.46 | -1.03 | -0.94
ZNF391 (zinc finger protein 391) | 0.55 | 0.75 | 0.21 | 0.71
DPPA5 (developmental pluripotency associated 5) | 0.74 | 0.68 | 0.52 | 1.02
FLJ45966 (retired record) | -0.08 | -0.33 | -0.12 | 0.21
LOC400600 (retired record) | 0.11 | 0.44 | -0.11 | 0.01
HNRNPR (heterogeneous nuclear ribonucleoprotein R) | 0.35 | 0.52 | 0.23 | 0.29
DOCK4 (dedicator of cytokinesis 4) | -0.56 | -0.7 | -0.49 | -0.48
KATNBL1 (katanin regulatory subunit B1 like 1) | 0.12 | -0.06 | 0.57 | -0.15
TMEM176A (transmembrane protein 176A) | -0.24 | -0.19 | -0.34 | -0.18
DNAJC10 (DnaJ heat shock protein family (Hsp40) member C10) | 0.15 | 0.18 | 0.31 | -0.04
FAM216B (family with sequence similarity 216 member B) | 0.25 | 0.44 | 0.31 | 0.01
MGME1 (mitochondrial genome maintenance exonuclease 1) | -0.08 | 0.2 | -0.34 | -0.1
IKBKE (inhibitor of nuclear factor kappa B kinase subunit epsilon) | 0.64 | 0.71 | 0.64 | 0.56
KRTAP10-2 (keratin associated protein 10-2) | -0.54 | -0.35 | -0.7 | -0.58
SLC25A41 | 0.35 | 0.58 | 0.25 | 0.22
PTP4A1 (protein tyrosine phosphatase 4A1) | -0.89 | -0.99 | -0.75 | -0.94
VARS1 (valyl-tRNA synthetase 1) | -2.02 | -1.93 | -1.85 | -2.3
VMA12 (vacuolar ATPase assembly factor VMA12) | -0.94 | -0.96 | -0.84 | -1.01
URI1 (URI1 prefoldin like chaperone) | -0.6 | -0.72 | -0.66 | -0.41
MMP26 (matrix metallopeptidase 26) | -1.03 | -1.2 | -0.93 | -0.96
NFE2 (nuclear factor, erythroid 2) | -0.32 | -0.42 | -0.23 | -0.3
ARL3 (ARF like GTPase 3) | 1.64 | 1.82 | 1.54 | 1.56
CTSH (cathepsin H) | -0.22 | -0.2 | -0.54 | 0.07
STRADBP1 (STE20-related kinase adaptor beta pseudogene 1) | -0.66 | -0.6 | -0.8 | -0.57
RAD52 (RAD52 DNA repair protein) | 0.67 | 0.62 | 0.88 | 0.5
SLBP (stem-loop histone mRNA binding protein) | 0.33 | -0.05 | 0.39 | 0.65
CCL23 (C-C motif chemokine ligand 23) | 3.1 (active) | 2.99 | 3.21 | 3.11
BCOR (BCL6 corepressor) | 1.97 | 2.25 | 2.08 | 1.59
SMAD1 (SMAD family member 1) | 0.41 | 0.53 | 0.44 | 0.27
PIANP (PILR alpha associated neural protein) | -0.24 | -0.15 | -0.36 | -0.2
NMUR2 (neuromedin U receptor 2) | -0.66 | -0.38 | -0.79 | -0.81
AOC2 (amine oxidase copper containing 2) | -0.75 | -0.73 | -1.02 | -0.51
REL-DT (REL divergent transcript) | -1.04 | -0.78 | -0.89 | -1.43
CRYAB (crystallin alpha B) | 0.29 | 0.31 | 0.38 | 0.18
ZNF875 (zinc finger protein 875) | -0.45 | -0.54 | -0.61 | -0.21
FMNL1 (formin like 1) | -1.17 | -1.03 | -1.42 | -1.08
OR2Y1 (olfactory receptor family 2 subfamily Y member 1) | -1.32 | -1.3 | -1.54 | -1.11
ARHGEF3 (Rho guanine nucleotide exchange factor 3) | 1.03 | 1.12 | 1.14 | 0.84

A portion from the list above, as a working copy:
target | mean z-score | z-score, replicate A | z-score, replicate B | z-score, replicate C
ZNF875 (zinc finger protein 875) | -0.45 | -0.54 | -0.61 | -0.21
FMNL1 (formin like 1) | -1.17 | -1.03 | -1.42 | -1.08
OR2Y1 (olfactory receptor family 2 subfamily Y member 1) | -1.32 | -1.3 | -1.54 | -1.11
ARHGEF3 (Rho guanine nucleotide exchange factor 3) | 1.03 | 1.12 | 1.14 | 0.84
